The source made the active and inactive calls.
Key:
Details in all cases: time 5.0 day
[1] = tested on: Mycobacterium tuberculosis variant bovis; experiment: Antimycobacterial activity against Mycobacterium bovis BCG B47-4 harboring F644L mutant assessed as inhibition of bacterial growth incubated for 5 days by broth dilution method
[2] = tested on: Mycobacterium tuberculosis variant bovis; experiment: Antimycobacterial activity against Mycobacterium bovis BCG B33-2 harboring F255L mutant assessed as inhibition of bacterial growth incubated for 5 days by broth dilution method
[3] = tested on: Mycobacterium tuberculosis variant bovis; experiment: Antimycobacterial activity against Mycobacterium bovis BCG B47-2 harboring V681I mutant assessed as inhibition of bacterial growth incubated for 5 days by broth dilution method

Measured: Activity

O=C(NC1CCCCCCC1)c1cc2ccccc2s1
inactive: [1] | [2] | [3]

O=C(NC1CCCCCCC1)c1cc2ccccc2[se]1
inactive: [1] | [2] | [3]

c1ccc2[se]c(CNC3CCCCCCC3)cc2c1
inactive: [1] | [2] | [3]
